Compound potency records, mixed from different reports. Data source: NIAID ChemDB in PubChem.

Shared fields: whole-cell or culture tests; species: Candida albicans; read-out: MIC

An empty or dashed field is not shown. Rows are shuffled and stem from different studies.

| compound | strain | method | result |
|---|---|---|---|
| CC(C)C(=O)CCCNC(=S)Nc1ccccc1 | ATCC2094 |  | >128 µg/mL |
| CCc1nc([N+]#N)c(C(=O)N2CCCC2)[nH]1 | ATCC 10231 |  | 200 µg/mL |
| O=C(O)c1ccc(NC(=S)N=Nc2c(O)[nH]c3ccccc23)cc1 |  |  | 2.32 µM |
| CCN(CC)N1C(=O)C(C(Sc2ccccc2)c2ccc(Br)cc2)SC1=S | ATCC 2091 | broth dilution | 64 µg/mL |
| CCOC(=O)CCNC(=S)Nc1ccc(OC)cc1 | ATCC2094 |  | >128 µg/mL |
| CN1Cc2c(ccc3c2OCO3)-c2ccc3cc4c(cc3c21)OCO4 | ATCC 10231 |  | 18.7 µg/mL |
| COc1ccc(-c2cc(-c3ccc4oc(=O)c(-c5ccccc5)c(C)c4c3)nc3c2oc2ccccc23)cc1OC | MTCC 227 | broth dilution / turbidity | 200 µg/mL |
| C=CCSS(=O)CC=C |  | broth dilution | >160 µg/mL |
| CCCCOC(=O)C1(O)CC(O)C(OC(=O)/C=C/c2ccc(O)c(OC)c2)C(O)C1 | ATCC 10231 |  | >1000 µg/mL |
| COc1ccc(NC(=S)NCCC(=O)OC(C)C)cc1OC | ATCC2094 |  | 98 µg/mL |
| C=C(Cc1ccc(O)cc1)C(=C)Cc1ccc(O)cc1 |  |  | >200 µg/mL |
| COc1cc(O)c2c(c1)C(=O)c1c(cc3c(c1O)-c1c(cc(C)c(C(=O)N[C@H](CO)C(=O)O)c1O)[C@H](O[C@@H]1O[C@H](C)[C@H](O)[C@H](O)[C@H]1O)[C@H]3O)C2=O | ATCC 32354 |  | 3.1 µg/mL |
| COc1ccc(/C=N/NC(=S)Nc2ccc(C(=O)NO)cc2)cc1 |  |  | 1.56 µM |
| O=C1NC(=S)SC1C(Sc1ccccc1)c1ccccc1 | ATCC 2091 | broth dilution | 64 µg/mL |
| O=C(O)C(Cc1c[nH]c2ccccc12)[NH][Sn]([c]1ccccc1)([c]1ccccc1)[c]1ccccc1 |  |  | <12.5 µg/mL |
| Cc1c(-c2ccccc2)c(=O)oc2ccc(-c3cc(-c4ccc(F)cc4)c4c(n3)-c3ccccc3CC4)cc12 | MTCC 227 | broth dilution / turbidity | 1000 µg/mL |
| CC(C)=CCC/C(C)=C/CCC(C)=CCCC[n+]1ccccc1.Cc1ccc(S(=O)(=O)[O-])cc1 | CCH442 |  | 26 µM |
| CN1c2ccccc2N(CCc2ccccc2)C1C(=S)Nc1ccccc1 |  |  | 800 µg/mL |
| COC(=O)CCNC(=S)Nc1ccc(OC)c(OC)c1 | ATCC2094 |  | 30 µg/mL |
| O=NC(=O)c1ccc(NC(=S)NNc2c(O)[nH]c3ccccc23)cc1 |  |  | 1.44 µM |
| N#[N+]c1nc(-c2ccccc2Cl)[nH]c1C(=O)N1CCCC1 | ATCC 10231 |  | 50 µg/mL |
| O=C(O)c1ccc(NC(=S)N/N=C/c2ccc(Cl)cc2)cc1 |  |  | 2.99 µM |
| COc1ccc2c(c1)[nH]c1c(C)c3sc(C)c(C)c3cc12 | CECT 1394 |  | 100 µg/mL |
| COc1c(O)ccc2c1C(=O)N1CCc3cc4c(cc3C1C2)OCO4 | ATCC 10231 |  | >1000 µg/mL |
| Cc1c(-c2ccccc2)c(=O)oc2ccc(-c3cc(-c4ccc(Cl)cc4)c4oc5ccccc5c4n3)cc12 | MTCC 227 | broth dilution / turbidity | 1000 µg/mL |
| C[C@H]1[C@H](O)[C@@H](C)/C=C/C=C/C=C/C=C/C=C/C=C/C=C/[C@H](O[C@@H]2O[C@H](C)[C@@H](O)[C@H](N)[C@@H]2O)C[C@@H]2O[C@](O)(C[C@@H](O)C[C@@H](O)CC[C@H](O)[C@@H](O)C[C@@H](O)CC(=O)O[C@H]1C)C[C@H](O)[C@H]2C(=O)O | ATCC 64549 |  | 0.4 µg/mL |
| Cn1c(=[Se])n(CCc2ccccc2)c2ccccc21 |  |  | 800 µg/mL |
| CC(C)CCCC(C)CCCC(C)CCCC[n+]1ccccc1.Cc1ccc(S(=O)(=O)[O-])cc1 | CCH442 |  | 6.4 µM |
| COc1ccc(-c2cc(-c3ccc4oc(=O)c(-c5ccccc5)c(C)c4c3)nc3c2CCc2ccccc2-3)cc1OC | MTCC 227 | broth dilution / turbidity | 1000 µg/mL |
| CC(C)=CCC/C(C)=C/CCC(C)=CCCC[n+]1cccc(C)c1.Cc1ccc(S(=O)(=O)[O-])cc1 | CCH442 |  | 13 µM |
| CCCCOC(=O)[C@]1(O)CC(O)[C@@H](O)C(OC(=O)/C=C/c2ccc(O)c(OC)c2)C1 | ATCC 10231 |  | >1000 µg/mL |
| C[C@@H](c1nc(-c2ccc(C#N)cc2)cs1)[C@](O)(Cn1cnnc1)c1ccc(F)cc1F | Isogenic isolate 17 CDR |  | 1 µg/mL |
| O=C(NO)c1ccc(NC(=S)N/N=C/c2ccc(Cl)cc2)cc1 |  |  | 1.55 µM |
| CC(C)N(C(C)C)N1C(=O)/C(=C/c2ccccc2)SC1=S | ATCC 2091 | broth dilution | 64 µg/mL |
| COc1c(OC(C)=O)ccc2c1C(=O)N1CCc3cc4c(cc3C1C2)OCO4 | ATCC 10231 |  | >1000 µg/mL |
| COC(=O)CCNC(=S)Nc1ccc([N+](=O)[O-])cc1 | ATCC2094 |  | >128 µg/mL |
| c1ccc(CCn2cnc3ccccc32)cc1 |  |  | 400 µg/mL |
| CC(C)CCCC(C)CCCC(C)CCCC[n+]1ccc(N(C)C)cc1.O=C([O-])C(F)(F)F | CCH442 |  | 3.3 µM |
| O=C(O)c1ccc(NC(=S)N/N=C/c2ccc(OO)cc2)cc1 |  |  | 3.08 µM |
| [Cl][Sn]([c]1ccccc1)([c]1ccccc1)[c]1ccccc1 |  |  | 12.5 µg/mL |
| COc1ccc(/C=N/NC(=S)Nc2ccc(C(=O)O)cc2)cc1OC |  |  | 2.45 µM |
| C[C@@H]1[C@H](O)[C@@H](C)/C=C/C=C/C=C/C=C/C=C/C=C/C=C/[C@H](O[C@@H]2O[C@H](C)[C@@H](O)[C@H](N)[C@@H]2O)C[C@@H]2O[C@](O)(C[C@@H](O)C[C@@H](O)[C@H](O)CC[C@@H](O)C[C@@H](O)CC(=O)O[C@H]1C)C[C@H](O)[C@H]2C(=O)O | ATCC 18804 | broth dilution | 0.08 µg/mL |
| COc1ccc(NC(=S)NCCCC(C)=O)cc1 | ATCC2094 |  | >128 µg/mL |
| N#[N+]c1nc(-c2ccccc2)[nH]c1C(=O)N1CCCC1 | ATCC 10231 |  | 100 µg/mL |
| Clc1ccc(COC(Cn2ccnc2)c2ccc(Cl)cc2Cl)c(Cl)c1 | ATCC 90028 |  | 0.06 µg/mL |
| Cc1c(-c2ccccc2)c(=O)oc2ccc(-c3cc(-c4ccccc4)c4c(n3)-c3ccccc3C4)cc12 | MTCC 227 | broth dilution / turbidity | 500 µg/mL |
| [CH3][Sn]([CH3])([CH3])[NH]C(Cc1c[nH]c2ccccc12)C(=O)O |  |  | 1 µg/mL |
| Cc1ccc(-c2cc(-c3ccc4oc(=O)c(-c5ccccc5)c(C)c4c3)nc3c2Cc2ccccc2-3)cc1 | MTCC 227 | broth dilution / turbidity | 500 µg/mL |
| O=C(/C=C/c1ccccc1S(=O)(=O)O)c1cccc(N(CCO)CCO)c1 | ATCC 10231 | broth dilution | 32 µg/mL |
| COc1ccc(NC(=S)NCCCC(=O)C(C)C)cc1 | ATCC2094 |  | 24 µg/mL |
| CCCCCCCCCCCCCC[n+]1ccccc1 | CCH442 |  | 10 µM |
| Cc1sc2c(C)c3[nH]c4cccnc4c3cc2c1C | CECT 1394 |  | 25 µg/mL |
| CCCc1nc([N+]#N)c(C(=O)N2CCCC2)[nH]1 | ATCC 10231 |  | 200 µg/mL |
| O=C(NO)c1ccc(NC(=S)N/N=C/c2ccccc2)cc1 |  |  | 1.54 µM |
| O=C(/C=C/c1ccc(F)cc1)c1cccc(N(CCO)CCO)c1 | ATCC 10231 | broth dilution | 32 µg/mL |
| CCCCCCCCCCCC[n+]1ccccc1 | CCH442 |  | 22 µM |
| O=C1NC(=S)SC1C(Sc1ccccc1)c1ccc(Cl)cc1 | ATCC 2091 | broth dilution | 32 µg/mL |
| CCn1c(=[Se])n(CCc2ccccc2)c2ccccc21 |  |  | 800 µg/mL |
| COc1ccc2cc3[n+](cc2c1OC)CCc1cc2c(cc1-3)OCO2 |  | broth dilution | >160 µg/mL |
| C[C@H]1[C@H](O)[C@@H](C)/C=C/C=C/C=C/C=C/C=C/C=C/C=C/[C@H](O[C@@H]2O[C@H](C)[C@@H](O)[C@H](N)[C@@H]2O)C[C@@H]2O[C@](O)(C[C@@H](O)C[C@@H](O)CC[C@H](O)[C@@H](O)C[C@@H](O)CC(=O)O[C@H]1C)C[C@H](O)[C@H]2C(=O)O | ATCC 90028 |  | 0.12 µg/mL |
| Oc1ccc2c(c1)O[C@H](c1ccc3c(c1)OCO3)CC2 |  |  | 6 µg/mL |

Again, the opening 5 rows:

compound,strain,method,result
CC(C)C(=O)CCCNC(=S)Nc1ccccc1,ATCC2094,,>128 µg/mL
CCc1nc([N+]#N)c(C(=O)N2CCCC2)[nH]1,ATCC 10231,,200 µg/mL
O=C(O)c1ccc(NC(=S)N=Nc2c(O)[nH]c3ccccc23)cc1,,,2.32 µM
CCN(CC)N1C(=O)C(C(Sc2ccccc2)c2ccc(Br)cc2)SC1=S,ATCC 2091,broth dilution,64 µg/mL
CCOC(=O)CCNC(=S)Nc1ccc(OC)cc1,ATCC2094,,>128 µg/mL